Measured values from several laboratories, pooled; numbers as filed in NIAID ChemDB.

All rows: growth or infection tests; species: Mycobacterium avium; measure: MIC

Rows are shuffled and stem from different studies. Blank or dashed fields: not listed here. Two numbers with a dash give a range or band.

compound	setting	strain or isolate	result
Nc1ccccc1C(=O)Nc1ccc(Br)cc1	-	MY330/88	>125 µM
CC1CN(c2c(F)c(N)c3c(=O)c(C(=O)O)cn(C4CC4)c3c2F)CCN1C	-	1915112	1 µg/mL
CC(C)=CC/C(C)=C/CN1[C@H](CO)[C@@H](O)[C@H](O)[C@@H]1CO	-	3 to 5 strains	64 µg/mL
O=C(O)c1cn(C2CC2)c2c(F)c(N3CCS(=O)CC3)c(F)cc2c1=O	-	TMC 1403	≤0.25 µg/mL
COc1cc([C@H]2Oc3c(OC)cc(/C=C/C=O)cc3[C@@H]2COC(C)=O)ccc1O	-	ATCC 25291	128 µg/mL
O=C(Nc1ccc(C(F)(F)F)cc1)c1cc(Br)ccc1OP(=O)(Oc1ccccc1)Oc1ccccc1	7 d	MY330/88	8 µM
Cc1ccc(NC(=O)c2ccccc2O)cc1	-	MY330/88	62 µM
Oc1ccc(O)cc1	-	MAC104	1600 µg/mL
CC1CN(c2nc3c(cc2F)c(=O)c(C(=O)O)cn3C(C)(C)C)CCN1	-	14 strains	0.1–12.5 µg/mL
Cc1[nH]c(-c2ccc(Cl)cc2)cc1CN1CCOCC1	-	103317	>64 µg/mL
O=C(O)c1cn(C2CC2)c2c(F)c(N3CCN4CCC3C4)c(F)cc2c1=O	-	RG1	0.5 µg/mL
CCCCC/C=C\C/C=C\CCCCCCCC(=O)O	-	-	2000 µM
C[C@@H]1CN(c2c(F)c(N)c3c(=O)c(C(=O)O)cn(C4CC4)c3c2F)C[C@H](C)N1	-	-	4 µg/mL
Cc1[nH]c(-c2ccc(Cl)cc2)c(CN2CCN(C)CC2)c1CN1CCN(C)CC1	-	103317	>64 µg/mL
CC1CN(c2cc3c(cc2F)c(=O)c(C(=O)O)cn3C(C)(C)C)CCN1	-	14 strains	0.1–12.5 µg/mL
NCC[C@H](O)C(=O)N[C@@H]1C[C@H](N)[C@@H](O[C@H]2O[C@H](CN)[C@@H](O)[C@H](O)[C@H]2O)[C@H](O)[C@H]1O[C@H]1O[C@H](CO)[C@@H](O)[C@H](N)[C@H]1O	-	ATCC 25291	8 µg/mL
Cc1ccc(NC(=O)c2ccccc2N)cc1C	-	MY330/88	125 µM
CCCCCCCCCCCCCCCCCCC(CC)C(=O)O	-	-	>2000 µM
CC1CN(c2c(F)cc3c(=O)c(C(=O)O)cn(C4CC4)c3c2F)CCN1	-	TMC 1403	≤0.25 µg/mL
CCC(CO)NC[C@H]1N[C@@H](CO)[C@@H](O)[C@@H]1O	-	3 to 5 strains	>128 µg/mL
CCCCCCn1c(-c2ccc(Cl)cc2)cc(CN2CCN(C)CC2)c1C	-	103317	>64 µg/mL
O=C(O)c1cn(C2CC2)c2c(F)c(N3CCSCC3)c(F)cc2c1=O	-	TMC 1403	≤0.25 µg/mL
CO[C@H]1/C=C/O[C@@]2(C)Oc3c(C)c(O)c4c(=O)c(c5oc6cc(N7CCN(CC(C)C)CC7)cc(=O)c6nc5c4c3=C2O)NC(=O)/C(C)=C\C=C\[C@H](C)[C@H](O)[C@@H](C)[C@@H](O)[C@@H](C)[C@H](OC(C)=O)[C@@H]1C	-	3010	0.062 µg/mL
NC1CCN(c2nc3c(cc2F)c(=O)c(C(=O)O)cn3-c2ccc(F)cc2F)C1	-	II	>32 µg/mL
O=C(Nc1ccc(Cl)cc1)c1cc(Cl)ccc1OP(=O)(c1ccccc1)c1ccccc1	7 d	MY330/88	16 µM
NC1CCN(c2c(F)cc3c(=O)c(C(=O)O)cn(C4CC4)c3c2Cl)C1	-	II	32 µg/mL
O=C(O)c1cn(C2CC2)c2cc(N3CCNCC3)c(F)cc2c1=O	-	1915112	≤4 µg/mL
CC(=O)Nc1ccc(/C=N/NC(N)=S)cc1	-	A71	1 µg/mL
CCCCCCCCCCCCS(=O)C[C@@H]1N[C@H](CO)[C@@H](O)[C@@H]1O	-	3 to 5 strains	32–64 µg/mL
CC1CN(c2c(F)cc3c(=O)c(C(=O)O)cn(C4CC4)c3c2F)CC(C)N1	-	1915112	2–4 µg/mL
CC(=O)NCC1CN(c2ccc(C(C)=O)cc2)C(=O)O1	-	1 isolates	>250 µg/mL
O=C(Nc1ccc(Br)cc1)c1cc(Cl)ccc1OP(=O)(c1ccccc1)c1ccccc1	7 d	MY330/88	16 µM
O=c1oc2ccc(Cl)cc2c(=S)n1Cc1ccccc1	21 d	My 88	65 µM
COc1ccc(NC(=O)c2ccccc2N)cc1	-	MY330/88	>250 µM
O=C(O)c1cccc2ccccc12	-	MAC104	3200 µg/mL
CC[C@H]1OC(=O)[C@H](C)[C@@H](O[C@H]2C[C@@](C)(OC)[C@@H](O)[C@H](C)O2)[C@H](C)[C@@H](O[C@@H]2O[C@H](C)C[C@H](N(C)C)[C@H]2O)[C@](C)(OC)C[C@@H](C)C(=O)[C@H](C)[C@@H](O)[C@]1(C)O	-	A5	0.25 µg/mL
O=C(Nc1ccc(Cl)c(Cl)c1)c1cc(Cl)ccc1OP(=O)(Oc1ccccc1)Oc1ccccc1	14 d	MY330/88	16 µM
CCn1cc(C(=O)O)c(=O)c2cc(F)c(N3CCC(CO)C3)c(F)c21	-	1915112	16 µg/mL
CC1COc2c(N3CCN(C)CC3)c(F)cc3c(=O)c(C(=O)O)cn1c23	-	Isolate 7497	1.25 µg/mL
O=c1oc2ccccc2c(=O)n1-c1ccc(Cl)cc1	-	MY330/88	62 µM
O=C(O)c1cn(C2CC2)c2cc(N3CCNCC3)c(F)cc2c1=O	-	-	4 µg/mL
CCCCCCCCCCO[C@@H]1[C@H](OC)[C@@H]([C@@H](C[C@H]2OC(C(=O)N[C@H]3CCC[C@@H](C)NC3=O)=C[C@H](O)[C@@H]2O)C(N)=O)O[C@H]1n1ccc(=O)[nH]c1=O	-	HIHJ 1605	1 µg/mL
CC[C@H](CO)NC[C@@H]1O[C@H](CO)[C@@H](O)[C@@H]1O	-	3 to 5 strains	>128 µg/mL
CCOc1ccc(NC(C)=O)cc1	-	MAC104	800 µg/mL
Cc1[nH]c(-c2ccc(Cl)cc2)c(CN2CCOCC2)c1CN1CCOCC1	-	103317	>64 µg/mL
CC[C@@H](CO)NCCN[C@@H](CC)CO	-	RG2	8 µg/mL
CO[C@H]1/C=C/O[C@@]2(C)Oc3c(C)c(O)c4c(O)c(c(/C=N/N5CCN(C)CC5)c(O)c4c3C2=O)NC(=O)/C(C)=C\C=C\[C@H](C)[C@H](O)[C@@H](C)[C@@H](O)[C@@H](C)[C@H](OC(C)=O)[C@@H]1C	-	Isolate 90-0969	30 µg/mL
CC1=C(C)C(=O)c2ccccc2C1=O	-	MAC104	100 µg/mL
Cc1c(CN2CCOCC2)cc(-c2ccc(Cl)cc2)n1Cc1ccccc1	-	103317	>64 µg/mL
CCC1CN(c2c(F)cc3c(=O)c(C(=O)O)cn(C4CC4)c3c2OC)CCN1	-	14 strains	0.1–12.5 µg/mL
O=c1oc2ccccc2c(=O)n1-c1ccc(Cl)c(Cl)c1	-	MY330/88	16 µM
O=C(Nc1ccc(C(F)(F)F)cc1)c1cc(Cl)ccc1OP(=O)(c1ccccc1)c1ccccc1	14 d	MY330/88	8 µM
CC[C@H]1OC(=O)[C@H](C)[C@@H](O[C@H]2C[C@@](C)(OC)[C@@H](O)[C@H](C)O2)[C@H](C)[C@@H](O[C@@H]2O[C@H](C)C[C@H](N(C)C)[C@H]2O)[C@](C)(OC)C[C@@H](C)C(=O)[C@H](C)[C@@H](O)[C@]1(C)O	-	RG1	0.12 µg/mL
CC[C@@H](CO)NCCN[C@@H](CC)CO	-	MTCC1723	15 µg/mL
COc1ccc(NC(=O)c2ccccc2O)cc1	-	MY330/88	125 µM
C[C@]1(/C=C/Cl)C[C@](Cl)(CBr)[C@@H](Br)C[C@H]1Cl	-	-	64 µg/mL
CCCCCCCC(CCCCCCC)CC(=O)O	-	-	2000 µM
CC1(C)CC(=NO)C2[Se]ON=C2C1	-	-	8.47 µg/mL
C[C@@H]1CN(c2c(F)c(N)c3c(=O)c(C(=O)O)cn(C4CC4)c3c2F)C[C@H](C)N1	-	1915112	2 µg/mL
Cc1c(CN2CCN(C)CC2)cc(-c2ccc(Cl)cc2)n1-c1ccc(Cl)cc1	-	103317	0.4 µg/mL
CC1(C)CC(=O)C2=C(C1)OC1=C(C(=O)CC(C)(C)C1)[Se]2=O	-	-	55.46 µg/mL
CC1CN(c2cc3c(cc2F)c(=O)c(C(=O)O)cn3-c2ccc(F)cc2F)CCN1	-	ATCC 25291	32 µg/mL
CO[C@H]1[C@@H](O)[C@H](n2ccc(=O)[nH]c2=O)O[C@@H]1[C@@H](O[C@H]1OC(C(=O)N[C@H]2CCCCNC2=O)=C[C@H](O)[C@@H]1O)C(N)=O	-	HIHJ 1605	8 µg/mL
Cc1c(CN2CCOCC2)cc(-c2ccc(Cl)cc2)n1C1CCCCC1	-	103317	>64 µg/mL
CN[C@@H]1[C@H](O[C@H]2[C@H](O[C@H]3[C@H](O)[C@@H](O)[C@H](N=C(N)N)[C@@H](O)[C@@H]3N=C(N)N)O[C@@H](C)[C@]2(O)C=O)O[C@@H](CO)[C@H](O)[C@H]1O	-	ATCC 15769	0.69 µM
CC[C@H]1OC(=O)[C@H](C)[C@@H](O[C@H]2C[C@@](C)(OC)[C@@H](O)[C@H](C)O2)[C@H](C)[C@@H](O[C@@H]2O[C@H](C)C[C@H](N(C)C)[C@H]2O)[C@](C)(O)C[C@@H](C)C(=O)[C@H](C)[C@@H](O)[C@]1(C)O	-	ATCC 25291	16 µg/mL
CCCCCCn1c(C)c(CN2CCN(C)CC2)c(CN2CCN(C)CC2)c1-c1ccc(Cl)cc1	-	103317	>64 µg/mL
C[C@@H]1CN(c2nc3c(cc2F)c(=O)c(C(=O)O)cn3C(C)(C)C)C[C@H](C)N1	-	14 strains	0.1–12.5 µg/mL

Again, the opening 9 rows:

{"compound": "Nc1ccccc1C(=O)Nc1ccc(Br)cc1", "strain or isolate": "MY330/88", "result": ">125 µM"}
{"compound": "CC1CN(c2c(F)c(N)c3c(=O)c(C(=O)O)cn(C4CC4)c3c2F)CCN1C", "strain or isolate": "1915112", "result": "1 µg/mL"}
{"compound": "CC(C)=CC/C(C)=C/CN1[C@H](CO)[C@@H](O)[C@H](O)[C@@H]1CO", "strain or isolate": "3 to 5 strains", "result": "64 µg/mL"}
{"compound": "O=C(O)c1cn(C2CC2)c2c(F)c(N3CCS(=O)CC3)c(F)cc2c1=O", "strain or isolate": "TMC 1403", "result": "≤0.25 µg/mL"}
{"compound": "COc1cc([C@H]2Oc3c(OC)cc(/C=C/C=O)cc3[C@@H]2COC(C)=O)ccc1O", "strain or isolate": "ATCC 25291", "result": "128 µg/mL"}
{"compound": "O=C(Nc1ccc(C(F)(F)F)cc1)c1cc(Br)ccc1OP(=O)(Oc1ccccc1)Oc1ccccc1", "setting": "7 d", "strain or isolate": "MY330/88", "result": "8 µM"}
{"compound": "Cc1ccc(NC(=O)c2ccccc2O)cc1", "strain or isolate": "MY330/88", "result": "62 µM"}
{"compound": "Oc1ccc(O)cc1", "strain or isolate": "MAC104", "result": "1600 µg/mL"}
{"compound": "CC1CN(c2nc3c(cc2F)c(=O)c(C(=O)O)cn3C(C)(C)C)CCN1", "strain or isolate": "14 strains", "result": "0.1–12.5 µg/mL"}